From US12023323B2, “Carbohydrate-binding small molecules with antiviral activity” (priority 2018, dated 2024)

Columns and labels:
ZIKV GFP RVPs = assay: ZIKV reporter virus particle (RVP) infection assay in Vero cells; conditions: for IC50: Table 1, compounds 30 min before ZIKV RVPs, GFP+ cells 72 h postinfection; for anti-ZIKV activity in words: ZIKV RVPs
ZIKV RVPs = assay: ZIKV RVP infection assay in HeLa cells; type: cell-based, Zika virus; conditions: Table 2

Molecule | IC50 (ZIKV GFP RVPs) | anti-ZIKV activity in words (ZIKV GFP RVPs) | IC50 (ZIKV RVPs)
(1E,1′E,1″E,1′″E)-N,N,N′,N″-([1,1′-biphenyl]-3,3′,5,5′-tetrayltetrakis(methylene))tetrakis(1-(furan-2-yl)methanimine) | > 100 µM | not effective | 
[N-]=[N+]=NCc1cc(CN=[N+]=[N-])cc(-c2cc(CN=[N+]=[N-])cc(Cn3cc(COCCOCCOCCOCCOCCOCc4cn(Cc5cc(CN=[N+]=[N-])cc(-c6cc(CN=[N+]=[N-])cc(CN=[N+]=[N-])c6)c5)nn4)nn3)c2)c1 | > 100 µM |  | 
1,1′,1′″-([1,1′-biphenyl]-3,3′,5,5′-tetrayl)tetrakis(N-((1-methyl-1H-imidazol-2-yl)methyl)methanamine) | > 100 µM | does not show any anti-Zika activity | 
(1E,1′E,1″E,1′″E)-N,N,N″,N″-([1,1′-biphenyl]-3,3′,5,5′-tetrayltetrakis(methylene))tetrakis(1-(thiophen-2-yl)methanimine) | > 100 µM | not effective | 
[N-]=[N+]=NCc1cc(CN=[N+]=[N-])cc(-c2cc(CN=[N+]=[N-])cc(Cn3cc(COCCOCCOCCOCc4cn(Cc5cc(CN=[N+]=[N-])cc(-c6cc(CN=[N+]=[N-])cc(CN=[N+]=[N-])c6)c5)nn4)nn3)c2)c1 | > 100 µM |  | 
[N-]=[N+]=NCc1cc(CN=[N+]=[N-])cc(-c2cc(CN=[N+]=[N-])cc(Cn3cc(COCCOCc4cn(Cc5cc(CN=[N+]=[N-])cc(-c6cc(CN=[N+]=[N-])cc(CN=[N+]=[N-])c6)c5)nn4)nn3)c2)c1 | > 100 µM |  | 
(1E,1′E,1″E,1′″E)-N,N,N′,N″-([1,1′-biphenyl]-3,3′,5,5′-tetrayltetrakis(methylene))tetrakis(1-(1H-pyrrol-2-yl)methanimine) | 1.36 µM | less potent | 3.06 µM
